Structures can show the parent of a compound that is named as a salt.
Legend:
Type in all cases: cell-based
Details in all cases: selectivity index, A549 IC50 versus 30 day MCC
[1] = system: Acanthamoeba castellanii (ATCC50370) cysts; experiment: Encystation drug susceptibility / excystation viability assay, 30 day recovery, A. castellanii cysts
Method: (§1) The trophozoites of Acanthamoeba were harvested by mechanical detachment and collected via centrifugation at 4000 rpm at 4° C. for 5 minutes. The trophozoites were washed in 10 mL of Neff's Encystment Media (NEM). NEM composition is 20 mM Tris-HCL [pH 8.8] (2.43 g/L), 100 mM KCL (7.46 g/L), 8 mM MgSO4 (962.96 mg/L), 0.4 mM CaCL2 58.81 mg/L) and 1 mM NaHCO3 (84.01 mg/L) (Neff et al. 1964). All reagents were bought from Sigma Aldrich. Centrifugation of the trophozoites was repeated to ensure any residual growth medium was removed. The pellet was resuspended in a final volume of 15 mL of NEM, cultured in 75 cm^2 corning tissue culture flasks and incubated vertically in a thermal shaker, shaken at 100 rpm at 37° C. for 72 hours to produce fully matured cysts. NEM was supplemented with 250 μg of penicillin/streptomycin. Fresh cysts were produced each time for any experimentation.
(§2) At 72 hours the cysts were harvested using a cell scraper and collected via centrifugation at 4000 rpm at 25° C. for 10 minutes. The cells were washed twice in 10 mL of HyClone™ water, Molecular Biology Grade, and centrifugation was repeated to ensure the removal of any residual NEM. The cell suspension was washed with 0.5% sodium dodecyl sulphate (SDS) to remove any remaining trophozoites and immature cysts. The fully mature cysts were further washed twice with 10 mL of HyClone™ water and 1% NEM, centrifugation was repeated to remove any residue of SDS. The concentration of mature cysts was determined using a haemocytometer and adjusted to 1×10^4 cysts/mL in NEM.
(§3) All test compounds were prepared as 5 mg/mL stock solutions in dimethylsulfoxide (DMSO). All compounds were diluted in NEM, serially diluted in 2-fold dilutions 6 or 11 times, yielding a screening concentration range of 1.56 μg/mL to 50 μg/mL or 48 ng/mL to 50 μg/mL with a final highest screening concentration of 1% DMSO.
(§4) Based on this, a strain specific test period and also a 30 day non-specific recovery time were considered. For the 30 day recovery period, the media was changed 5 times to ensure the contents of wells dis not evaporate and have an effect within the results of the assay.
(§5) 90 μL of 1×10^4 Cysts/ml and 10 μL of experimental compounds from the screening plates were produced according to the protocols above and combined into a Corning clear 96 well treated tissue culture plate. Control wells include cysts in non-drug treated, 1% DMSO, NEM (to be used for negative growth control), NEM Blank, PG blank and cysts in non-drug treated, 1% DMSO, PG (to excyst cells and to be used for positive growth control). The total well volume for all wells was 100 μL. The drug exposed plates were screened at 27° C. for 6 or 24 hours only. At the exposure time point the plates were centrifuged at 4000 rpm at 25° C. for 10 minutes and washed twice with phosphate-buffered saline (PBS) to remove any residual experimental compound.
(§6) Once the plate(s) underwent the Encystation drug susceptibility process, all wells except the negative growth control and NEM blank wells received PG growth medium. All plates were left to recover at 27° C. for the strain specific time period of 5, 9 or 11 days depending on the species of Acanthamoeba. At each of the strain specific time points the plates were removed from incubation and microscopically analysed (qualitatively) for the excystation process for the emergence of excysted viable trophozoites or residual cysts. The presence of excysted trophozoites indicated viable amoebae (non-cystistatic or cysticidal—no effect) and the absence of excystation was considered as cystistatic/cysticidal effects.

[2] = system: Acanthamoeba healyi cysts; experiment: Encystation drug susceptibility / excystation viability assay, 30 day recovery, A. healyi cysts
Method: as §1, §2, §3, §4, §5, §6

[3] = system: Acanthamoeba culbertsoni (ATCC30171) cysts; experiment: Encystation drug susceptibility / excystation viability assay, 30 day recovery, A. culbertsoni cysts
Method: as §1, §2, §3, §4, §5, §6

Row | SMILES | A. castellanii SI [1] | A. healyi SI [2] | A. culbertsoni SI [3]
1 | COc1cc(Oc2ccc(-c3nc4ccc(C(=N)NC(C)C)cc4[nH]3)c(Br)c2)ccc1-c1nc2ccc(C(=N)NC(C)C)cc2[nH]1 [N, 2-(2-Bromo-4-(4-(6-(N-isopropylcarbamimidoyl)-1H-benzo[d]imidazol-2-yl)-3-methoxyphenoxy)phenyl)-N-isopropyl-1H-benzo[d]imidazole-6-carboximidamide] | 0.43 | 0.71 | 1.07
2 | CCC(CC)NC(=N)c1ccc2nc(-c3ccc(Oc4ccc(-c5nc6ccc(C(=N)NC(CC)CC)cc6[nH]5)cc4)cc3)[nH]c2c1 [Compound T] | 2.75 | 4.13 | 5.51
3 | CC(C)NC(=N)c1ccc2nc(-c3ccc(Oc4ccc(-c5nc6ccc(C(=N)NC(C)C)cc6[nH]5)c(Br)c4)c(Br)c3)[nH]c2c1 [Compound R, 2-(2-Bromo-4-(2-bromo-4-(6-(N-isopropylcarbamimidoyl)-1H-benzo[d]imidazol-2-yl)phenoxy)phenyl)-N-isopropyl-1H-benzo[d]imidazole-6-carboximidamide] | 1.57 | 1.18 | 1.57
4 | COc1cc(Oc2ccc(-c3nc4ccc(C(=N)NC(C)C)cc4[nH]3)c(Cl)c2)ccc1-c1nc2ccc(C(=N)NC(C)C)cc2[nH]1 [Compound S] | 1.05 | 1.58 | 3.16
5 | CCCCC(CC)CNC(=N)NC(=N)NCCCCCCNC(=N)NC(=N)NCC(CC)CCCC (stereo not drawn) [Alexidine HCL, alexidine, reference compound] | 0.29 | 0.29 | 0.29
6 | CC(C)NC(=N)c1ccc2nc(-c3ccc(Oc4ccc(-c5nc6ccc(C(=N)NC(C)C)cc6[nH]5)c(Br)c4)cc3)[nH]c2c1 [M, 2-(2-Bromo-4-(4-(6-(N-isopropylcarbamimidoyl)-1H-benzo[d]imidazol-2-yl)phenoxy)phenyl)-N-isopropyl-1H-benzo[d]imidazole-6-carboximidamide] | 1.38 | 1.03 | 0.69
7 | CC(C)NC(=N)c1ccc2nc(-c3ccc(Oc4ccc(-c5nc6ccc(C(=N)NC(C)C)cc6[nH]5)cc4Cl)c(Cl)c3)[nH]c2c1 [P, 2,2′-(Oxybis(3-chloro-4,1-phenylene))bis(N-isopropyl-1H-benzo[d]imidazole-6-carboximidamide)] | 0.27 | 0.49 | 0.25
8 | CC(C)NC(=N)c1ccc2nc(-c3ccc(Oc4ccc(-c5nc6ccc(C(=N)NC(C)C)cc6[nH]5)cc4Br)cc3)[nH]c2c1 [O, 2-(3-Bromo-4-(4-(6-(N-isopropylcarbamimidoyl)-1H-benzo[d]imidazol-2-yl)phenoxy)phenyl)-N-isopropyl-1H-benzo[d]imidazole-6-carboximidamide] | 0.33 | 0.33 | 0.33
9 | COc1cc(-c2nc3ccc(C(=N)NC(C)C)cc3[nH]2)ccc1Oc1ccc(-c2nc3ccc(C(=N)NC(C)C)cc3[nH]2)cc1F [J, 2-(3-Fluoro-4-(4-(6-(N-isopropylcarbamimidoyl)-1H-benzo[d]imidazol-2-yl)-2-methoxyphenoxy)phenyl)-N-isopropyl-1H-benzo[d]imidazole-6-carboximidamide] | 0.36 | 0.43 | 0.54
10 | CC(C)NC(=N)c1ccc2nc(-c3ccc(Oc4ccc(-c5nc6ccc(C(=N)NC(C)C)cc6[nH]5)c(Br)c4)c(F)c3)[nH]c2c1 [Q, 2-(2-Bromo-4-(2-fluoro-4-(6-(N-isopropylcarbamimidoyl)-1H-benzo[d]imidazol-2-yl)phenoxy)phenyl)-N-isopropyl-1H-benzo[d]imidazole-6-carboximidamide] | 0.98 | 0.98 | 1.30
11 | N=C(NCCCCCCNC(=N)NC(=N)Nc1ccc(Cl)cc1)NC(=N)Nc1ccc(Cl)cc1 [Chlorhexidine, chlorhexidine, reference compound] | 0.03 | 0.03 | 0.03
12 | CC(C)NC(=N)c1ccc2nc(-c3ccc(Oc4ccc(-c5nc6ccc(C(=N)NC(C)C)cc6[nH]5)cc4F)cc3)[nH]c2c1 [Compound I, 2-(3-Fluoro-4-(4-(6-(N-isopropylcarbamimidoyl)-1H-benzo[d]imidazol-2-yl)phenoxy)phenyl)-N-isopropyl-1H-benzo[d]imidazole-6-carboximidamide] | 0.82 | 0.82 | 0.41
13 | CC(C)NC(=N)c1ccc2nc(-c3ccc(Oc4ccc(-c5nc6ccc(C(=N)NC(C)C)cc6[nH]5)c(Cl)c4)cc3Cl)[nH]c2c1 [L, 2-2′-(Oxybis(2-chloro-4,1-phenylene))bis(N-isopropyl-3H-benzo[d]imidazole-6-carboximidamide)] | 1.45 | 1.45 | 1.45
14 | COc1cc(Oc2ccc(-c3nc4ccc(C(=N)NC(C)C)cc4[nH]3)cc2F)ccc1-c1nc2ccc(C(=N)NC(C)C)cc2[nH]1 [K, 2-(3-Fluoro-4-(4-(6-(N-isopropylcarbamimidoyl)-1H-benzo[d]imidazol-2-yl)-3-methoxyphenoxy)phenyl)-N-isopropyl-1H-benzo[d]imidazole-6-carboximidamide] | 0.42 | 0.52 | 1.39

— patent US12433872B2, “Treatment of Acanthamoeba or Balamuthia trophozoites and/or cysts” (GEORGIA STATE UNIVERSITY RESEARCH FOUNDATION, INC., priority 2018, dated 2025)
